A mixed list of measured activities; the numbers were collected in NIAID ChemDB.

Shared fields: whole-cell or culture tests; organism: HIV-1; cell line: MT-4; measure: EC50

ECn: concentration that inhibits the pathogen or its effect by n%. An empty or dashed field is not shown. a–b is a range or a potency band. Neighbouring rows are from separate reports.

structure	strain	changes	method	conditions	value
CC(C)C1=C2[C@H]3CC[C@@H]4[C@@]5(C)CC[C@H](OC(=O)C6C[C@@H](C(=O)O)C6(C)C)C(C)(C)[C@@H]5CC[C@@]4(C)[C@]3(C)CC[C@@]2(NC(=O)C2(NC(=O)c3ccc(Cl)cc3)CCC2)CC1=O	NL4-3		p24		0.00501–0.01 µM
Cc1cc2cn[nH]c2cc1NC(=O)COc1ccc(Cl)cc1C(=O)c1cccc(C#N)c1	IIIB		cytopathic effect / propidium iodide		<0.01 µM
Cc1c(O)cccc1C(=O)N[C@@H](Cc1ccccc1)[C@H](O)CN(CC(C)C)S(=O)(=O)c1ccc2nc(N)sc2c1	F	PR-L10F M46I M71V I84V	cytopathic effect / MTT		6.31 µM
Cc1ccc(Nn2c(-c3ccccc3)c(C)[nH]c2=S)cc1Cl	SO561945 (RT K103N Y181C)	RT-K103N Y181C	cytopathic effect / MTT		>44.29 µM
CC(C)[C@H](NC(=O)c1ccccc1)C(=O)N/N=C/c1ccccc1F	IIIB		MTT		123.8 µM
CCCn1cncc1CCNc1cc(S(=O)(=O)N(CC(C)C)C[C@@H](O)[C@H](Cc2ccccc2)NC(=O)O[C@H]2CO[C@H]3OCC[C@H]32)ccc1N	IIIB WT		GFP		0.631 µM
CC(C)C1=C2[C@H]3CC[C@@H]4[C@@]5(C)CC[C@H](OC(=O)C6C[C@@H](C(=O)O)C6(C)C)C(C)(C)[C@@H]5CC[C@@]4(C)[C@]3(C)CC[C@@]2(NC(=O)C(C)(C)NC(=O)c2ccc(S(C)(=O)=O)cc2)CC1=O	NL4-3	V7A	p24		>0.05 µM
CCn1cc(C(=O)O)c(=O)c2cc(F)c(N3CCN(c4ccccc4OC)CC3)c(OC(F)F)c21	RF		cytopathic effect / MTT		0.3 µM
COc1c(C(=O)/C=C(/C)Nc2ccc([N+](=O)[O-])cc2)c(O)c(S(=O)(=O)OC2CCCCC2)c2occc12	IIIB		MTT		0.000046 µM
Cc1cn(Cc2cn(COCCO)nn2)c(=O)[nH]c1=O	IIIB		cytopathic effect		>100 µg/mL
CC(=O)OCCOCn1c(-c2ccccc2)c(C#N)c([N+](=O)[O-])c1-c1ccccc1			cytopathic effect / MTT		>300 µM
CC(C)CN(C[C@@H](O)[C@H](Cc1ccccc1)NC(=O)O[C@H]1CO[C@H]2OCC[C@H]21)S(=O)(=O)c1ccc2nc(N)sc2c1	F	PR-L10F M46I M71V I84V	cytopathic effect / MTT		0.004 µM
Cc1cc(Br)cnc1NC(=S)NCCc1c(F)cccc1F	IIIB		cytopathic effect / MTT		0.0821 µg/mL
COC(=O)c1cnn2c1n[n+]([O-])c1ccccc12	IIIB		cytopathic effect / MTT		>98 µM
COc1c(C(=O)/C=C(/C)Nc2ccc(F)cc2)c(O)c(S(=O)(=O)Oc2ccc(F)cc2)c2occc12	IIIB		MTT		0.000036 µM
CC(C)[C@H](NC(=O)c1ccccc1)C(=O)N/N=C/c1c(F)cccc1Cl	IIIB		MTT		17.4 µM
C#CCn1cc(C)c(=O)[nH]c1=O	IIIB		cytopathic effect		>100 µg/mL
CC(C)C1=C2[C@H]3CC[C@@H]4[C@@]5(C)CC[C@H](OC(=O)C6C[C@@H](C(=O)O)C6(C)C)C(C)(C)[C@@H]5CC[C@@]4(C)[C@]3(C)CC[C@@]2(NC(=O)C(C)(C)NC(=O)c2ccc3nc(-c4cnccn4)[nH]c3c2)CC1=O	NL4-3	V7A	p24		>0.05 µM
CSc1cc(N)nc(S[C@@H](C)c2cc3c(C)coc3cn2)n1	MF DLV-resistant (RT P236L)	RT-P236L	p24		<0.02 µM
CC(C)C1=C2[C@H]3CC[C@@H]4[C@@]5(C)CC[C@H](OC(=O)C6C[C@@H](C(=O)O)C6(C)C)C(C)(C)[C@@H]5CC[C@@]4(C)[C@]3(C)CC[C@@]2(NC(=O)C(C)(C)NC(=O)Cc2ccc(Cl)cc2)CC1=O	NL4-3	V7A	p24		<0.01 µM
COc1c(C(=O)/C=C(/C)Nc2ccccc2)c(O)c(S(=O)(=O)Oc2ccc(F)cc2)c2occc12	IIIB		MTT		0.000039 µM
Fc1cccc(F)c1CCNC(=S)Nc1ncc(Br)cc1Cl	IIIB		cytopathic effect / MTT		2.26 µg/mL
CCOc1ccc(F)c(CCNC(=S)Nc2ncc(C(F)(F)F)s2)c1Cl	IIIB	RT-L100I	cytopathic effect / XTT		>2 µM
O=C(O)c1c([N+](=O)[O-])c(-c2ccccc2)n(COCCO)c1-c1ccccc1			cytopathic effect / MTT		>300 µM
CNc1nc2ccc(S(=O)(=O)N(CC(C)C)C[C@@H](O)[C@H](Cc3ccccc3)NC(=O)O[C@H]3CCOC3)cc2s1	F	PR-L10F M46I M71V I84V	cytopathic effect / MTT		0.794 µM
CCOP(=O)(CN[C@@H](Cc1ccccc1)[C@H](O)CN(CC(C)C)S(=O)(=O)c1ccc(OC)cc1)OCC	IIIB		MTT		7.77 µg/mL
O=C(COc1ccc(Cl)cc1C(=O)c1ccccc1)Nc1ccc(-n2cncn2)cc1	Nevirapine-resistant (RT Y181C)	RT-Y181C	cytopathic effect / propidium iodide		0.101–1 µM
CC(=O)OCCOCn1cc(Cn2cc(F)c(=O)[nH]c2=O)nn1	IIIB		cytopathic effect		>100 µg/mL
CC(C)[C@@H](NC(=O)c1ccccc1)C(=O)N/N=C/c1c(F)cccc1F	IIIB		MTT		>348 µM
CC(C)CN(C[C@@H](O)[C@H](Cc1ccccc1)NC(=O)O[C@H]1CO[C@H]2OCC[C@H]21)S(=O)(=O)c1ccc(N)c(NCCc2ccc3c(c2)OCO3)c1	IIIB WT		GFP		0.00372 µM
N#Cc1c([N+](=O)[O-])c(-c2ccccc2)n(COCCO)c1-c1ccccc1			cytopathic effect / MTT		>300 µM
Cc1ccc(C(=O)NC2(C(=O)N[C@@]34CC[C@]5(C)[C@H](CC[C@@H]6[C@@]7(C)CC[C@H](OC(=O)C8C[C@@H](C(=O)O)C8(C)C)C(C)(C)[C@@H]7CC[C@]65C)C3=C(C(C)C)C(=O)C4)CC2)cn1	NL4-3		p24		<0.005 µM
Cc1cc(S(N)(=O)=O)ccc1NC(=O)COc1ccc(Cl)cc1C(=O)c1cc(Cl)cc(C#N)c1	IIIB		cytopathic effect / propidium iodide		<0.01 µM
Fc1cccc(F)c1CCNC(=S)Nc1cccc(Br)n1	IIIB		cytopathic effect / MTT		0.016 µg/mL
Cc1ccccc1C(=O)N[C@@H](Cc1ccccc1)[C@H](O)CN(CC(C)C)S(=O)(=O)c1ccc2nc(N)sc2c1	LAI		cytopathic effect / MTT		0.004 µM
CC(C)CN(C[C@@H](O)[C@H](NC(=O)O[C@H]1CCOC1)Sc1ccccc1)S(=O)(=O)c1ccc(N)cc1			syncytia		>50 µM
CC(C)C1=C2[C@H]3CC[C@@H]4[C@@]5(C)CC[C@H](OC(=O)C6C[C@@H](C(=O)O)C6(C)C)C(C)(C)[C@@H]5CC[C@@]4(C)[C@]3(C)CC[C@@]2(NC(=O)C(C)(C)NC(=O)c2cnccn2)CC1=O	NL4-3		p24		<0.005 µM
Cc1cccc(Nn2c(-c3ccccc3)c(C(C)C)[nH]c2=S)c1	NL4-3		cytopathic effect / MTT		≥42.63 µM
Cc1cc(S(N)(=O)=O)ccc1NC(=O)COc1ccc(Cl)cc1C(=O)c1cc(F)cc(F)c1	IIIB		cytopathic effect / propidium iodide		<0.01 µM
Nc1ccn(C/C=C\COCP(=O)(O)O)c(=O)n1					>100 µM
O=[N+]([O-])c1cnn2c1n[n+]([O-])c1ccc(Cl)cc12	IIIB		cytopathic effect / MTT		>5.7 µM
CC1(C)CC=C(c2cn(-c3nccc(C(=O)NC4CCC(N5CC6CCC(C5)O6)CC4)n3)c3ccc(F)c([C@H](OC(C)(C)C)C(=O)O)c23)CC1	NL4-3	T124S	luminescence		0.0038 µM
O=C(COc1ccc(Cl)cc1C(=O)c1ccccc1)Nc1ccc2cn[nH]c2c1	Nevirapine-resistant (RT Y181C)	RT-Y181C	cytopathic effect / propidium iodide		0.011–0.1 µM
CC(C)CN(C[C@@H](O)[C@H](Cc1ccccc1)NC(=O)O[C@H]1CO[C@H]2OCC[C@H]21)S(=O)(=O)c1ccc(N)c(NCc2ccncc2)c1	IIIB WT		GFP		0.275 µM
Cc1ncn(Nc2ccccc2)c1C	IIIB		cytopathic effect / MTT		>351 µM
[O-][n+]1nc2ccnn2c2ccc(Cl)cc21	IIIB		cytopathic effect / MTT		>200 µM
CC(C)CN(C[C@@H](O)[C@H](Cc1ccccc1)NC(=O)OCc1cncs1)S(=O)(=O)c1ccc2nc(N)sc2c1	LAI		cytopathic effect / MTT		0.005 µM
CC(=O)Nc1nc2c(ncn2Cc2cn(COCCO)nn2)c(=O)[nH]1	IIIB		cytopathic effect		>100 µg/mL
N#Cc1cnn2c1n[n+]([O-])c1cc(Cl)ccc12	IIIB		cytopathic effect / MTT		>13 µM
Cc1ncn(Nc2ccccc2)c1-c1ccccc1	SO561945 (RT K103N Y181C)	RT-K103N Y181C	cytopathic effect / MTT		>52.18 µM
Cc1cccnc1NC(=S)NCCc1c(F)cccc1F	IIIB		cytopathic effect / MTT		0.0494 µg/mL
c1ccc(COCC2OC(OC3C4COC(O4)C(OCc4ccccc4)C3OCc3ccccc3)C(OCc3ccccc3)C(OCc3ccccc3)C2OCc2ccccc2)cc1			MTT		0.23 µg/mL
Fc1cccc(F)c1CCNC(=S)Nc1ccc(Br)c(Cl)n1	IIIB		cytopathic effect / MTT		0.0017 µg/mL
CC(=O)Nc1nc2c(ncn2Cc2cn(COCCOC(C)=O)nn2)c(=O)[nH]1	IIIB		cytopathic effect		>100 µg/mL
CC(C)CN(C[C@@H](O)[C@H](Cc1ccccc1)NC(=O)O[C@H]1CO[C@H]2OCC[C@H]21)S(=O)(=O)c1ccc(N)c(NCc2cccnc2)c1	IIIB WT		GFP		0.0832 µM
Cc1ccc(Nn2c(-c3ccccc3)c(C)[nH]c2=S)cc1C	IIIB		cytopathic effect / MTT		9.3 µM
CCOC(=O)c1c([N+](=O)[O-])c(-c2ccccc2)n(COCCO)c1C			cytopathic effect / MTT		>300 µM
CC(C)=CCN1Cc2cc(Cl)cc3[nH]c(=O)n(c23)C[C@@H]1C	IIIB	RT-L100I	cytopathic effect / XTT		>22 µM
O=c1ccn(Cc2cn(COCCO)nn2)c(=O)[nH]1	IIIB		cytopathic effect		>100 µg/mL
Cc1nc2ccccc2c(-c2cc(F)c3c(c2C)CCCO3)c1[C@H](OC(C)(C)C)C(=O)O	NL4-3	E170K	luminescence		0.0099 µM
Cc1cc(S(N)(=O)=O)ccc1NC(=O)COc1ccc(Cl)cc1C(=O)c1cc(F)cc(C#N)c1	IIIB		cytopathic effect / propidium iodide		<0.01 µM
CC(C)CN(C[C@@H](O)[C@H](Cc1ccccc1)NC(=O)O[C@H]1CO[C@H]2OCC[C@H]21)S(=O)(=O)c1ccc(N)c(NCCN2CCCCC2)c1	IIIB WT		GFP		0.0195 µM
Nc1ncnc2c1ncn2C/C=C\COCP(=O)(O)O					9 µM
[N-]=[N+]=Nc1c(-c2ccccc2)c(-c2ccccc2)n(COCCO)c1-c1ccccc1			cytopathic effect / MTT		>65 µM
COc1c2ccoc2c(S(=O)(=O)OC2CCCC2)c2oc(C)cc(=O)c12	IIIB		MTT		0.000058 µM
CC(C)CN(CC(O)C(NC(=O)O[C@H]1CCOC1)Sc1ccccc1)S(=O)(=O)c1ccc(N)cc1			syncytia		50 µM
Nc1nc2c(ncn2C/C=C\COCP(=O)(O)O)c(=O)[nH]1					>100 µM
Cc1cc(S(N)(=O)=O)ccc1NC(=O)COc1ccc(Cl)cc1C(=O)c1cc(F)cc(C(F)(F)F)c1	IIIB		cytopathic effect / propidium iodide		<0.01 µM
Cc1[nH]c(=S)n(Nc2ccccc2Cl)c1-c1ccccc1	SO561945 (RT K103N Y181C)	RT-K103N Y181C	cytopathic effect / MTT		>162 µM
COc1c(C(=O)/C=C(/C)Nc2ccc(Cl)cc2)c(O)c(S(=O)(=O)OC2CCCC2)c2occc12	IIIB		MTT		0.000043 µM
Nc1ccn([C@H]2CC[C@@H](CO)O2)c(=O)n1		Y181C	MTT		0.331 µM
CC(C)CN(C[C@@H](O)[C@H](Cc1ccccc1)NC(=O)O[C@H]1CO[C@H]2OCC[C@H]21)S(=O)(=O)c1ccc(N)c(NCCc2cccnc2)c1	IIIB WT		GFP		0.0759 µM
O=[N+]([O-])c1cnn2c1nnc1cc(Cl)ccc12	IIIB		cytopathic effect / MTT		>1.4 µM
O=C(COc1ccc(Cl)cc1C(=O)c1nccs1)Nc1ccc2[nH]ncc2c1	IIIB		cytopathic effect / propidium iodide		0.011–0.1 µM
CC(=O)N1C2CCC(C2)N2C(=O)c3c(O)c(=O)c(C(=O)NCc4ccc(F)cc4F)cn3CC12	NL4-3		GFP	100% human serum	0.043 µM
Cc1[nH]c(=S)n(Nc2ccccc2)c1C	IIIB		cytopathic effect / MTT		>181 µM
CCOP(=O)(OCC)C(Cc1ccccn1)N[C@@H](Cc1ccccc1)[C@H](O)CN(CC(C)C)S(=O)(=O)c1ccc(OC)cc1	IIIB		MTT		>13.93 µg/mL

Repeating the final 4 entries:

structure,strain,changes,method,conditions,value
O=C(COc1ccc(Cl)cc1C(=O)c1nccs1)Nc1ccc2[nH]ncc2c1,IIIB,,cytopathic effect / propidium iodide,,0.011–0.1 µM
CC(=O)N1C2CCC(C2)N2C(=O)c3c(O)c(=O)c(C(=O)NCc4ccc(F)cc4F)cn3CC12,NL4-3,,GFP,100% human serum,0.043 µM
Cc1[nH]c(=S)n(Nc2ccccc2)c1C,IIIB,,cytopathic effect / MTT,,>181 µM
CCOP(=O)(OCC)C(Cc1ccccn1)N[C@@H](Cc1ccccc1)[C@H](O)CN(CC(C)C)S(=O)(=O)c1ccc(OC)cc1,IIIB,,MTT,,>13.93 µg/mL